Pooled drug test results. Numbers come from NIAID ChemDB, via PubChem.

All rows: growth or infection tests; species: HIV-1

Conditions beyond the fields shown may differ between rows. An empty or dashed field is not shown. ECn: concentration that inhibits the pathogen or its effect by n%.

compound	setting	mutations	measure	read by	cell line	strain	result
Cc1c(O)cccc1C(=O)N[C@@H](CSc1ccccc1)[C@H](O)CN1C[C@H]2CCCC[C@H]2C[C@H]1C(=O)NC(C)(C)C			EC50			pNL4-3 luciferase reporter	0.0081 µM
COC(=O)[C@H](CCSC)NC(=O)[C@H](CO)NC(=O)COc1ccc2ccccc2c1			EC50	cytopathic effect / MTT	MT-4	IIIB	>49 µg/mL
O=C(CSc1nnnn1-c1ccc(Cl)c(Cl)c1)Nc1ccccc1[N+](=O)[O-]	10% FBS		EC95	p24	MT-4		>5 µM
Cc1cn([C@H]2C[C@H](N=[N+]=[N-])[C@@H](CO)O2)c(=O)[nH]c1=O			EC50	cytopathic effect / MTT	MT-4	RF	0.02 µM
O=C(Cc1cccs1)c1cccc(CN2C(=O)N(Cc3ccc4[nH]ncc4c3)[C@H](Cc3ccccc3)[C@H](O)[C@@H](O)[C@H]2Cc2ccccc2)c1			EC50		MT-2	RF	<0.018 µM
NC(N)=NCCCC(=O)NCC1OC(OC2C(NC(=O)CCCN=C(N)N)CC(NC(=O)CCCN=C(N)N)C(OC3CC(NC(=O)CCCN=C(N)N)C(O)C(CO)O3)C2O)C(O)C(O)C1O			EC50	cytopathic effect / MTT	MT-4	NL4-3	>200 µM
COC(=O)[C@H](CO)NC(=O)[C@H](CCSC)NC(=O)COc1ccc2ccccc2c1			EC50	cytopathic effect / MTT	MT-4	IIIB	>100 µg/mL
O=C1N(Cc2cccc(NCc3nc4ccccc4[nH]3)c2)[C@H](Cc2ccccc2)[C@H](O)[C@@H](O)[C@@H](Cc2ccccc2)N1Cc1ccc2[nH]ncc2c1			EC50		MT-2	RF WT	<0.063 µM
CN(C)CCCN1c2ccccc2Sc2ccc(Cl)cc21			EC50	cytopathic effect / MTT	MT-2	IIIB	>5.3 µg/mL
Nc1nc2c(ncn2[C@H]2CO[C@@H](CO)O2)c(=O)[nH]1			EC50	p24	PBMC	LAI	0.25 µM
CCCCCCCCCCOC1OC(COS(=O)(=O)O)C(OC2OC(COS(=O)(=O)O)C(OC3OC(COS(=O)(=O)O)C(OC4OC(COS(=O)(=O)O)C(OC5OC(COS(=O)(=O)O)C(OS(=O)(=O)O)C(OS(=O)(=O)O)C5OS(=O)(=O)O)C(OS(=O)(=O)O)C4OS(=O)(=O)O)C(OS(=O)(=O)O)C3OS(=O)(=O)O)C(OS(=O)(=O)O)C2OS(=O)(=O)O)C(OS(=O)(=O)O)C1OS(=O)(=O)O			EC50	cytopathic effect / MTT	MT-4	IIIB	10.2 µg/mL
CN1CCN(C2=c3cc(O)ccc3=Nc3ccc(Cl)cc3N2O)CC1			EC50	cytopathic effect / MTT	CEM-T4 + CEM	IIIB	>100 µg/mL
CCN1c2ncc(NCc3ccc(OCP(=O)(O)O)cc3)cc2C(=O)N(C)c2cccnc21			EC50				>5 µM
COC(=O)[C@H](CO)NC(=O)[C@H](C)NC(=O)COc1ccc2ccccc2c1			EC50	cytopathic effect / MTT	MT-4	IIIB	>100 µg/mL
Cc1cccc(NC(=O)c2cccc(CN3C(=O)N(Cc4ccc5[nH]ncc5c4)[C@H](Cc4ccccc4)[C@H](O)[C@@H](O)[C@H]3Cc3ccccc3)c2)n1			EC50		MT-2	RF	<0.003 µM
O=C(/C=C/c1ccc(O)c(O)c1)O[C@@H]1CC(O)(C(=O)O)C[C@@H](OC(=O)/C=C/c2ccc(O)c(O)c2)C1O			EC50	cytopathic effect / neutral red	MT-2	LAI	1 µg/mL
O=C(Cn1ccnn1)c1cccc(CN2C(=O)N(Cc3ccc4[nH]ncc4c3)[C@H](Cc3ccccc3)[C@H](O)[C@@H](O)[C@H]2Cc2ccccc2)c1			EC50		MT-2	RF	<0.03 µM
COC(=O)C(=O)OC1(C(=O)O)C[C@@H](OC(=O)/C=C/c2ccc(O)c(O)c2)C(O)[C@H](OC(=O)/C=C/c2ccc(O)c(O)c2)C1			EC50	cytopathic effect / neutral red	MT-2	LAI	4 µg/mL
CSc1ccc2c(c1)N=C(N1CCNCC1)c1ccccc1N2			EC50	cytopathic effect / MTT	MT-2	IIIB	>17 µg/mL
CCCCCCCCCCCCOC1OC(COS(=O)(=O)O)C(OS(=O)(=O)O)C(OC2OC(COS(=O)(=O)O)C(OS(=O)(=O)O)C(OC3OC(COS(=O)(=O)O)C(OS(=O)(=O)O)C(OC4OC(COS(=O)(=O)O)C(OS(=O)(=O)O)C(OC5OC(COS(=O)(=O)O)C(OS(=O)(=O)O)C(OS(=O)(=O)O)C5OS(=O)(=O)O)C4OS(=O)(=O)O)C3OS(=O)(=O)O)C2OS(=O)(=O)O)C1OS(=O)(=O)O			EC50	cytopathic effect / MTT	MT-4	IIIB	0.7 µg/mL
Cc1nc2n(c(=O)c1CCN1CCC(c3noc4cc(F)ccc34)CC1)CCCC2			EC50	cytopathic effect / MTT	MT-2	IIIB	>15 µg/mL
COC(=O)[C@H](CCSC)NC(=O)[C@H](CCSC)NC(=O)COc1ccc2ccccc2c1			EC50	cytopathic effect / MTT	MT-4	IIIB	>100 µg/mL
CN1CCN(C2=Nc3cc(O)ccc3Nc3ccccc32)CC1			EC50	cytopathic effect / MTT	MT-2	IIIB	56 µg/mL
Cc1ccc(Cl)cc1-n1nnnc1SCC(=O)Nc1ccccc1[N+](=O)[O-]	10% FBS		EC95	p24	MT-4		0.063 µM
Nc1ccc(CN2C(=O)N(Cc3ccc4[nH]ncc4c3)[C@H](Cc3ccccc3)[C@H](O)[C@@H](O)[C@H]2Cc2ccccc2)cc1-c1ccn[nH]1			EC50		MT-2	RF WT	<0.022 µM
O=c1[nH]cnc2c1ncn2[C@H]1CC[C@@H](CO)O1			EC50	plaque count	HT4 + HT4 LacZ-1	HXB2	1.4 µM
O=C(CSc1nnnn1-c1cc(F)ccc1Cl)Nc1ccccc1[N+](=O)[O-]	10% FBS		EC50	p24	MT-4		<0.063 µM
C=CCn1c(=O)c(C)cn([C@@H]2O[C@H](CO[Si](C)(C)C(C)(C)C)C3(OS(=O)(=O)C=C3N)[C@H]2O[Si](C)(C)C(C)(C)C)c1=O			EC50	p24	Monocytes/macrophages	BaL	0.524 µM
O=C(Cn1cccn1)c1cccc(CN2C(=O)N(Cc3ccc4[nH]ncc4c3)[C@H](Cc3ccccc3)[C@H](O)[C@@H](O)[C@H]2Cc2ccccc2)c1			EC50		MT-2	RF	<0.015 µM
COC(=O)[C@@H](NC(=O)CNC(=O)COc1ccc2ccccc2c1)C(C)C			EC50	cytopathic effect / MTT	MT-4	IIIB	>82 µg/mL
Clc1ccc2c(c1)N=C(N1CCNCC1)c1ccccc1N2			EC50	cytopathic effect / MTT	CEM-T4 + CEM	IIIB	>11 µg/mL
Cc1cn([C@@H]2O[C@H](CO)C3(OS(=O)(=O)C=C3N)[C@H]2O[Si](C)(C)C(C)(C)C)c(=O)[nH]c1=O			EC50	syncytia	MOLT-4	IIIB	>80 µM
CC(C)=CCN1c2cc(Cl)cc3[nH]c(=S)n(c23)C[C@@H]1C		RT-M41L T215Y	EC95		MT-4		0.1 µM
CCCCCCCCCCCCOC1OC(COS(=O)(=O)O)C(OC2OC(COS(=O)(=O)O)C(OC3OC(COS(=O)(=O)O)C(OC4OC(COS(=O)(=O)O)C(OC5OC(COS(=O)(=O)O)C(OC6OC(COS(=O)(=O)O)C(OS(=O)(=O)O)C(OS(=O)(=O)O)C6O)C(OS(=O)(=O)O)C5OS(=O)(=O)O)C(O)C4OS(=O)(=O)O)C(OS(=O)(=O)O)C3O)C(OS(=O)(=O)O)C2O)C(O)C1OS(=O)(=O)O			EC50	cytopathic effect / MTT	PBL	IIIB	11.7 µg/mL
O=C(CCCN1CCC(O)(c2ccc(Cl)cc2)CC1)c1ccc(F)cc1			EC50	cytopathic effect / MTT	MT-2	IIIB	>20 µg/mL
COC(=O)CNC(=O)CNC(=O)COc1ccc2ccccc2c1			EC50	cytopathic effect / MTT	MT-4	IIIB	>100 µg/mL
Cc1cn([C@@H]2O[C@H](CO[Si](C)(C)C(C)(C)C)C3(OS(=O)(=O)C=C3N)[C@H]2O)c(=O)[nH]c1=O			EC50	syncytia	CEM	IIIB	>40 µM
Nc1ccc(CN2C(=O)N(Cc3ccc4[nH]ncc4c3)[C@H](Cc3ccccc3)[C@H](O)[C@@H](O)[C@H]2Cc2ccccc2)cc1F			EC50		MT-2	RF	<0.007 µM
Cc1cc(C)c(-n2nnnc2SCC(=O)Nc2ccc([N+](=O)[O-])cc2Cl)c(C)c1	50% human serum		EC50	p24	MT-4		<1.25 µM
CCCCCCCCCCCCCCCCCCOC1OC(COS(=O)(=O)O)C(OC2OC(COS(=O)(=O)O)C(OC3OC(COS(=O)(=O)O)C(OC4OC(COS(=O)(=O)O)C(OC5OC(COS(=O)(=O)O)C(OC6OC(COS(=O)(=O)O)C(OS(=O)(=O)O)C(OS(=O)(=O)O)C6O)C(OS(=O)(=O)O)C5O)C(O)C4OS(=O)(=O)O)C(O)C3OS(=O)(=O)O)C(OS(=O)(=O)O)C2O)C(OS(=O)(=O)O)C1O			EC50	cytopathic effect / MTT	MT-4	IIIB	0.6 µg/mL
O=C(Nc1ccccn1)c1cccc(CN2C(=O)N(Cc3ccc4[nH]ncc4c3)[C@H](Cc3ccccc3)[C@H](O)[C@@H](O)[C@H]2Cc2ccccc2)c1			EC50		MT-2	RF	<0.005 µM
Cc1cn([C@H]2C[C@H](N=[N+]=[N-])[C@@H](CO)O2)c(=O)[nH]c1=O			EC50	cytopathic effect	MT-4	RF	0.019 µg/mL
CSc1ccc2c(c1)N=C(N1CCN(C)CC1)c1ccccc1N2			EC50	cytopathic effect / MTT	CEM-T4 + CEM	IIIB	>28 µg/mL
Cc1cccc(-n2nnnc2SCC(=O)Nc2ccccc2[N+](=O)[O-])c1C	50% human serum		EC50	p24	MT-4		<0.25 µM

Repeating the first 4 entries:

compound,setting,mutations,measure,read by,cell line,strain,result
Cc1c(O)cccc1C(=O)N[C@@H](CSc1ccccc1)[C@H](O)CN1C[C@H]2CCCC[C@H]2C[C@H]1C(=O)NC(C)(C)C,,,EC50,,,pNL4-3 luciferase reporter,0.0081 µM
COC(=O)[C@H](CCSC)NC(=O)[C@H](CO)NC(=O)COc1ccc2ccccc2c1,,,EC50,cytopathic effect / MTT,MT-4,IIIB,>49 µg/mL
O=C(CSc1nnnn1-c1ccc(Cl)c(Cl)c1)Nc1ccccc1[N+](=O)[O-],10% FBS,,EC95,p24,MT-4,,>5 µM
Cc1cn([C@H]2C[C@H](N=[N+]=[N-])[C@@H](CO)O2)c(=O)[nH]c1=O,,,EC50,cytopathic effect / MTT,MT-4,RF,0.02 µM